Results deposited as PubChem BioAssay AID1259414 (Drosophila RNAi Screening Center, 2018)
The deposit covers about 24,000 reagents; this is an unselected part of those that have a named target and a result. In the full data, about 1,210 (5%) were called active. 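Inactive calls also include excluded dsRNAs with several or no targets, genes unexpressed in JW18, and well A1, regardless of score.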 The numbers tell different reagents against one gene apart. Names joined by + are all predicted targets of the reagent.

- Test: 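Fly genes that alter Wolbachia amount inside host cells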 (primary screen)
- System: Drosophila JW18 cells infected with Wolbachia
- Reagents: long dsRNA against Drosophila genes, 0.25 µg dsRNA per well of a 384-well plate
- Duration: 5 days
- Treatment: cells persistently infected with Wolbachia before knock-down; no added drug
- Detection: 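Imaged fluorescence in situ signal for Wolbachia 23S rRNA per DAPI-counted host cell, given as a robust z-score within each plate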
- Scale: Wolbachia per cell robust z: higher = more Wolbachia per host cell than the plate typical
- Hit rule: 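Active if absolute robust z reaches 1.5 in two or more of three replicates, leaving out multi- or no-target dsRNAs, genes unexpressed in JW18 and A1 wells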

CG10602 → Wolbachia per cell robust z, rep 1: -0.689; Wolbachia per cell robust z, rep 2: -10; Wolbachia per cell robust z, rep 3: -9; outcome: active
Fs(2)Ket (Female sterile (2) Ketel) #1 → Wolbachia per cell robust z, rep 1: 0.864; Wolbachia per cell robust z, rep 2: 1.71; Wolbachia per cell robust z, rep 3: 1.53; outcome: active
Fs(2)Ket (Female sterile (2) Ketel) #2 → Wolbachia per cell robust z, rep 1: 1.08; Wolbachia per cell robust z, rep 2: 0.921; Wolbachia per cell robust z, rep 3: 1.98; outcome: inactive
CG8745 #1 → Wolbachia per cell robust z, rep 1: -0.11; Wolbachia per cell robust z, rep 2: -5.7; Wolbachia per cell robust z, rep 3: 0.388; outcome: inactive
CG8745 #2 → Wolbachia per cell robust z, rep 1: 0.0895; Wolbachia per cell robust z, rep 2: -0.236; Wolbachia per cell robust z, rep 3: -2.64; outcome: inactive
CG8745 #3 → Wolbachia per cell robust z, rep 1: 0.258; Wolbachia per cell robust z, rep 2: 0.765; Wolbachia per cell robust z, rep 3: -0.314; outcome: inactive
Invadolysin → Wolbachia per cell robust z, rep 1: -0.125; Wolbachia per cell robust z, rep 2: -0.321; Wolbachia per cell robust z, rep 3: 0.141; outcome: inactive
CG12951 #1 → Wolbachia per cell robust z, rep 1: -0.128; Wolbachia per cell robust z, rep 2: 0.589; Wolbachia per cell robust z, rep 3: -0.0577; outcome: inactive
CG12951 #2 → Wolbachia per cell robust z, rep 1: -0.281; Wolbachia per cell robust z, rep 2: 0.445; Wolbachia per cell robust z, rep 3: 0.637; outcome: inactive
CG8642 → Wolbachia per cell robust z, rep 1: -0.383; Wolbachia per cell robust z, rep 2: -1.29; Wolbachia per cell robust z, rep 3: -0.333; outcome: inactive
repo (reversed polarity) #1 → Wolbachia per cell robust z, rep 1: 0.799; Wolbachia per cell robust z, rep 2: 1.58; Wolbachia per cell robust z, rep 3: 0.749; outcome: inactive
repo (reversed polarity) #2 → Wolbachia per cell robust z, rep 1: -1.95; Wolbachia per cell robust z, rep 2: -0.919; Wolbachia per cell robust z, rep 3: 0.895; outcome: inactive
CG34298 → Wolbachia per cell robust z, rep 1: -5.05; Wolbachia per cell robust z, rep 2: -5.78; Wolbachia per cell robust z, rep 3: 0.886; outcome: inactive
CG14286 #1 → Wolbachia per cell robust z, rep 1: 0.597; Wolbachia per cell robust z, rep 2: 0.924; Wolbachia per cell robust z, rep 3: -0.82; outcome: inactive
CG14286 #2 → Wolbachia per cell robust z, rep 1: -0.0829; Wolbachia per cell robust z, rep 2: -0.235; Wolbachia per cell robust z, rep 3: -0.556; outcome: inactive
CG4741 #1 → Wolbachia per cell robust z, rep 1: 0.428; Wolbachia per cell robust z, rep 2: 0.106; Wolbachia per cell robust z, rep 3: -5.01; outcome: inactive
CG4741 #2 → Wolbachia per cell robust z, rep 1: -1.65; Wolbachia per cell robust z, rep 2: -0.269; Wolbachia per cell robust z, rep 3: 0.22; outcome: inactive
CG1648 #1 → Wolbachia per cell robust z, rep 1: 0.303; Wolbachia per cell robust z, rep 2: -5.84; Wolbachia per cell robust z, rep 3: -0.284; outcome: inactive
CG1648 #2 → Wolbachia per cell robust z, rep 1: -0.564; Wolbachia per cell robust z, rep 2: 0.68; Wolbachia per cell robust z, rep 3: -1.31; outcome: inactive
CG17826 #1 → Wolbachia per cell robust z, rep 1: -2.02; Wolbachia per cell robust z, rep 2: -1.13; Wolbachia per cell robust z, rep 3: -1.86; outcome: inactive
CG17826 #2 → Wolbachia per cell robust z, rep 1: -0.437; Wolbachia per cell robust z, rep 2: -0.302; Wolbachia per cell robust z, rep 3: -1.08; outcome: inactive
CG17826 #3 → Wolbachia per cell robust z, rep 1: -1.23; Wolbachia per cell robust z, rep 2: -1.34; Wolbachia per cell robust z, rep 3: -0.973; outcome: inactive
CG44838 #1 → Wolbachia per cell robust z, rep 1: 1.58; Wolbachia per cell robust z, rep 2: 1.41; Wolbachia per cell robust z, rep 3: 1.97; outcome: inactive
CG44838 #2 → Wolbachia per cell robust z, rep 1: -0.249; Wolbachia per cell robust z, rep 2: 0.881; Wolbachia per cell robust z, rep 3: 0.19; outcome: inactive
CG44838 #3 → Wolbachia per cell robust z, rep 1: -7.58; Wolbachia per cell robust z, rep 2: 1.05; Wolbachia per cell robust z, rep 3: -9.94; outcome: inactive
CG44838 #4 → Wolbachia per cell robust z, rep 1: 0.952; Wolbachia per cell robust z, rep 2: 0.536; Wolbachia per cell robust z, rep 3: -0.913; outcome: inactive
drm (drumstick) → Wolbachia per cell robust z, rep 1: 0.251; Wolbachia per cell robust z, rep 2: 1.1; Wolbachia per cell robust z, rep 3: -0.37; outcome: inactive
eIF2beta (eukaryotic translation initiation factor 2 subunit beta) #1 → Wolbachia per cell robust z, rep 1: 2.15; Wolbachia per cell robust z, rep 2: 2.57; Wolbachia per cell robust z, rep 3: 4.62; outcome: active
eIF2beta (eukaryotic translation initiation factor 2 subunit beta) #2 → Wolbachia per cell robust z, rep 1: -0.999; Wolbachia per cell robust z, rep 2: 0.326; Wolbachia per cell robust z, rep 3: -0.869; outcome: inactive
CG12947 + asRNA:CR31514 → Wolbachia per cell robust z, rep 1: -0.586; Wolbachia per cell robust z, rep 2: 0.788; Wolbachia per cell robust z, rep 3: 0.488; outcome: inactive

Entries above whose target name starts with F or f:
Fs(2)Ket (Female sterile (2) Ketel) #1 → Wolbachia per cell robust z, rep 1: 0.864; Wolbachia per cell robust z, rep 2: 1.71; Wolbachia per cell robust z, rep 3: 1.53; outcome: active
Fs(2)Ket (Female sterile (2) Ketel) #2 → Wolbachia per cell robust z, rep 1: 1.08; Wolbachia per cell robust z, rep 2: 0.921; Wolbachia per cell robust z, rep 3: 1.98; outcome: inactive
